Key:
[1] = molecular target: urease (UreABC)3 of the Strep-tag II (UreABC)3:UreDFG complex (Klebsiella aerogenes); assay: native MS
SEC = molecular target: the molecule itself; assay: SEC

Row | Binder | stoichiometry N [1] | stoichiometry N (SEC)
1 | UreDFG with UreG fused to Strep-tag II (complex, Klebsiella aerogenes) chain 1: MLPPLKKGWQATLDLRFHQAGGKTVLASAQHVGPLTVQRPFYPEEETCHLYLLHPPGGIVGGDELTISAHLAPGCHTLITMPGASKFYRSSGAQALVRQQLTLAPQATLEWLPQDAIFFPGANARLFTTFHLCASSRLLAWDLLCLGRPVIGETFSHGTLSNRLEVWVDNEPLLVERLHLQEGELSSIAERPWVGTLLCYPATDALLDGVRDALAPLGLYAGASLTDRLLTVRFLSDDNLICQRVMRDVWQFLRPHLTGKSPVLPRIWLT chain 2: MSTAEQRLRLMQLASSNLPVGGYSWSQGLEWAVEAGWVLDVAAFERWQRRQMTEGFFTVDLPLFARLYRACEQGDIAAAQRWTAYLLACRETRELREEERNRGAAFARLLSDWQPDCPPPWRSLCQQSQLAGMAWLGVRWRIALPEMALSLGYSWIESAVMAGVKLVPFGQQAAQQLILRLCDHYAAEMPRALAAPDGDIGSATPLAAIASARHETQYSRLFRS chain 3: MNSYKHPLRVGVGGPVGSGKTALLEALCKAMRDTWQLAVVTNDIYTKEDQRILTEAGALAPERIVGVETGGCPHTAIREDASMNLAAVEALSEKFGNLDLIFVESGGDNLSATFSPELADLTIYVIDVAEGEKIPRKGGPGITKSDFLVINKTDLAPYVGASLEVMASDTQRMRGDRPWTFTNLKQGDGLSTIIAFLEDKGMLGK | 2 | –
2 | (MBP-UreD:UreF:UreG)2 accessory protein complex (complex, Klebsiella aerogenes) chain 1: MLPPLKKGWQATLDLRFHQAGGKTVLASAQHVGPLTVQRPFYPEEETCHLYLLHPPGGIVGGDELTISAHLAPGCHTLITMPGASKFYRSSGAQALVRQQLTLAPQATLEWLPQDAIFFPGANARLFTTFHLCASSRLLAWDLLCLGRPVIGETFSHGTLSNRLEVWVDNEPLLVERLHLQEGELSSIAERPWVGTLLCYPATDALLDGVRDALAPLGLYAGASLTDRLLTVRFLSDDNLICQRVMRDVWQFLRPHLTGKSPVLPRIWLT chain 2: MSTAEQRLRLMQLASSNLPVGGYSWSQGLEWAVEAGWVLDVAAFERWQRRQMTEGFFTVDLPLFARLYRACEQGDIAAAQRWTAYLLACRETRELREEERNRGAAFARLLSDWQPDCPPPWRSLCQQSQLAGMAWLGVRWRIALPEMALSLGYSWIESAVMAGVKLVPFGQQAAQQLILRLCDHYAAEMPRALAAPDGDIGSATPLAAIASARHETQYSRLFRS chain 3: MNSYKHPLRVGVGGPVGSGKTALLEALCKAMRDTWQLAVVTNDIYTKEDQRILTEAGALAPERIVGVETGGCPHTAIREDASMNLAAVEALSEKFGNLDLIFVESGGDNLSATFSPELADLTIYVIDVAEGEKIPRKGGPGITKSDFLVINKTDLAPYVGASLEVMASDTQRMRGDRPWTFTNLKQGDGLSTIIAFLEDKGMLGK | – | 2

From article PMC3788043 (Journal of the American Society for Mass Spectrometry, 2013)
